Measured values from several laboratories, pooled; numbers as filed in NIAID ChemDB.

All rows: target-level tests

a–b is a range or a potency band. Lines come from different laboratories, so protocols vary. Blank or dashed fields: not listed here. ICn: concentration for n% inhibition.

structure	strain or isolate	read by	read-out	target	organism	result
CCC1(c2cc(Cl)cc(Cl)c2)C(C#N)=C(N)Oc2n[nH]c(C)c21		absorbance	Ki	Serine hydroxymethyltransferase	Plasmodium falciparum	0.281 µM
CN1CCC(NC2=CCC3=NC=C(c4cnn(-c5cnccn5)c4)[N+]3=N2)CC1			IC50	Calcium-dependent protein kinase 1	Plasmodium falciparum	0.013 µM
COc1cc(C)c2c(Oc3cccc(C(F)(F)F)c3)c(OC)cc(NC(C)CCCN)c2n1		nucleotide incorporation	IC50	Hematin	Plasmodium falciparum	16 µM
CCCOc1ccc(C2Sc3ccccc3NC3=C2C(=O)c2ccccc23)cc1N(C)C		fluorescence	IC50	NDH2	Plasmodium falciparum	>20 µM
O=c1[nH]cnc2c1ncn2CCOCCP(=O)(O)O		absorbance	Ki	Hypoxanthine-guanine-xanthine phosphoribosyltransferase	Plasmodium falciparum	0.3 µM
O=C(/C=C/c1ccc([N+](=O)[O-])cc1)NCCCCNc1ccnc2cc(Cl)ccc12	Recombinant	fluorescence	IC50	Falcipain-2 (FP2)	Plasmodium falciparum	>50 µM
CCCCCCOc1c(OC)cc(NC(C)CCCN)c2nc(OC)c(C)cc12		nucleotide incorporation	IC50	Hematin	Plasmodium falciparum	41 µM
COc1ccc(/C=C/C(=O)NCCCCNc2ccnc3cc(Cl)ccc23)cc1	Recombinant	fluorescence	IC50	Falcipain-2 (FP2)	Plasmodium falciparum	>50 µM
CC(C)CCn1c(Sc2ccc(C#N)c([N+](=O)[O-])c2)nnc1-c1ccc(Cl)cc1			IC50	Thioredoxin reductase	Plasmodium vivax	4.6 µM
COC(=O)CCc1cccc(-c2cc(Cl)cc(C3(C4CCC4)C(C#N)=C(N)Oc4n[nH]c(C)c43)c2)c1		absorbance	IC50	Serine hydroxymethyltransferase	Plasmodium falciparum	0.17 µM
Nc1nc2c(ncn2[C@@H]2CNC[C@@H]2OCP(=O)(O)O)c(=O)[nH]1		absorbance	Ki	Hypoxanthine-guanine-xanthine phosphoribosyltransferase	Plasmodium falciparum	2 µM
Cc1[nH]nc2c1C(c1cc(Cl)cc(C#N)c1)(C(C)C)C(C#N)=C(N)O2		absorbance	Ki	Serine hydroxymethyltransferase	Plasmodium falciparum	0.518 µM
Nc1ccc(/C=C/C(=O)NCCCCNc2ccnc3cc(Cl)ccc23)cc1	Recombinant	fluorescence	IC50	Falcipain-2 (FP2)	Plasmodium falciparum	>50 µM
Cc1c(-c2ccc(-c3ccc(OC(C)(C)C)cc3)nc2)[nH]c2cc(F)ccc2c1=O	cytochrome bc1		IC50	Cytochrome bc1	Plasmodium falciparum	0.0268 µM
Cc1[nH]nc2c1C(c1cc(C#N)cc(-c3ccc(C(=O)N(C)C)s3)c1)(C(C)C)C(C#N)=C(N)O2		absorbance	Ki	Serine hydroxymethyltransferase	Plasmodium falciparum	0.272 µM
CC(C)C[C@H](NC(=O)[C@@H](O)[C@H](N)Cc1ccccc1)C(=O)O		fluorescence	IC50	PfM1AAP	Plasmodium falciparum	0.3 µM
CCOC(=O)CCCN(C)c1cc(C#N)cc(C2(C3CCC3)C(C#N)=C(N)Oc3n[nH]c(C)c32)c1		absorbance	IC50	Serine hydroxymethyltransferase	Plasmodium falciparum	0.56 µM
O=c1[nH]cnc2c1ncn2[C@@H]1CNC[C@H]1OCP(=O)(O)O		absorbance	Ki	Hypoxanthine-guanine-xanthine phosphoribosyltransferase	Plasmodium falciparum	80 µM
COc1cc(NC(C)CCCN)c2nccc(C)c2c1OCCCCCc1cccc(C)c1		nucleotide incorporation	IC50	Hematin	Plasmodium falciparum	25 µM
N#CCN(CCn1cnc2c(=O)[nH]c(N)nc21)CCP(=O)(O)O		absorbance	Ki	Hypoxanthine-guanine phosphoribosyltransferase	Plasmodium vivax	47 µM
CC(C)Cn1c(Sc2ccc(C#N)c([N+](=O)[O-])c2)nnc1-c1ccccc1Cl			IC50	Thioredoxin reductase	Plasmodium vivax	4.7 µM
NC1CCC(NC2=CCC3=NC=C(c4cn[nH]c4)[N+]3=N2)CC1			IC50	Calcium-dependent protein kinase 1	Plasmodium falciparum	0.07 µM
CCc1[nH]nc2c1C(c1cc(Cl)cc(Cl)c1)(C1CCC1)C(C#N)=C(N)O2		absorbance	Ki	Serine hydroxymethyltransferase	Plasmodium falciparum	0.5125 µM
Nc1nc2c(ncn2CCOCP(=O)(O)O)c(=O)[nH]1		absorbance	Ki	Hypoxanthine-guanine-xanthine phosphoribosyltransferase	Plasmodium falciparum	1.6 µM
CC(C)n1cc(C2=CN=C3CC=C(NC4CCN(C)CC4)N=[N+]23)cn1			IC50	Calcium-dependent protein kinase 1	Plasmodium falciparum	0.546 µM
O=c1c(-c2ccc(Oc3ccc(OC(F)(F)F)cc3)cc2)c(CO)[nH]c2ccccc12	3D7	FRET	IC50	PfNDH2	Plasmodium falciparum	>0.056 µM
COC(=O)c1ccc(-c2cc(Cl)cc(C3(C4CCC4)C(C#N)=C(N)Oc4n[nH]c(C)c43)c2)cc1		absorbance	IC50	Serine hydroxymethyltransferase	Plasmodium falciparum	0.21 µM
COc1cc(NC(C)CCCN)c2nccc(C)c2c1OCCCCCc1c(C)cccc1C		nucleotide incorporation	IC50	Hematin	Plasmodium falciparum	61 µM
O=C(c1ccc([N+](=O)[O-])o1)N1CCN(c2nc3c(F)cc(F)cc3s2)CC1			IC50	Thioredoxin reductase	Plasmodium berghei	<4 µM
Cc1[nH]nc2c1C(c1cc(Cl)cc(-c3cccnc3)c1)(C1CCC1)C(C#N)=C(N)O2		absorbance	IC50	Serine hydroxymethyltransferase	Plasmodium falciparum	0.3 µM
O=C(/C=C/c1ccc(Cl)cc1)NCCCCNc1ccnc2cc(Cl)ccc12	Recombinant	fluorescence	IC50	Falcipain-2 (FP2)	Plasmodium falciparum	>50 µM
C=C1C(=O)O[C@H]2C1CC[C@@]1(C)C=CC(=O)C(=C)[C@H]21	D10	LDH	IC50	Lactase dehydrogenase	Plasmodium falciparum	1.611–2.115 µM